Measurements reported in PubChem BioAssay AID1259414 (Drosophila RNAi Screening Center, 2018).

Aim: 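Fly genes that alter Wolbachia amount inside host cells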 (primary screen)
System: Drosophila JW18 cells infected with Wolbachia
Reagent: long dsRNA against Drosophila genes, 0.25 µg dsRNA per well of a 384-well plate
Duration: 5 days
Challenge: cells persistently infected with Wolbachia before knock-down; no added drug
Measurement: 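Automated imaging of bacterial rRNA staining divided by host cell count, reported as plate-normalised robust z-score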
Direction: Wolbachia per cell robust z: higher = more Wolbachia per host cell than the plate typical
Active means: 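Active if absolute robust z reaches 1.5 in two or more of three replicates, leaving out multi- or no-target dsRNAs, genes unexpressed in JW18 and A1 wells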
In all, the deposit lists about 24,000 reagents; this is a random part of those with a known target gene and a result. In the full data, about 1,210 (5%) are marked active. 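Inactive calls also include excluded dsRNAs with several or no targets, genes unexpressed in JW18, and well A1, regardless of score.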 Names joined by + are all predicted targets of the reagent.

gene | DRSC id | Wolbachia per cell robust z, rep 1 | Wolbachia per cell robust z, rep 2 | Wolbachia per cell robust z, rep 3 | call
ATPsynB | DRSC09659 | 0.833 | -0.653 | -0.864 | inactive
Vdup1 | DRSC08586 | 0.17 | -1 | -0.681 | inactive
Hmx | DRSC15307 | -0.75 | -1.23 | 0.432 | inactive
Hmx | DRSC24958 | -1.46 | -3.44 | -1.84 | inactive
Hmx | DRSC25028 | -1.64 | -0.666 | -0.326 | inactive
CG30151 | DRSC05888 | -0.109 | 0.733 | 0.0617 | inactive
CG30151 | DRSC24759 | 0.397 | -0.325 | 0.977 | inactive
Cpr65Ax2 + Cpr65Ax1 | DRSC10341 | -0.425 | 0.354 | -1.56 | inactive
Alg7 | DRSC02833 | -0.0781 | -0.662 | -0.0326 | inactive
Alg7 | DRSC02834 | -0.733 | -0.772 | -0.811 | inactive

Looked up above:
Under “Wolbachia per cell robust z, rep 2”, Alg7 [DRSC02833] is entered as -0.662
Under “call”, Vdup1 [DRSC08586] is entered as inactive
Value of Hmx [DRSC15307] under “Wolbachia per cell robust z, rep 3”: 0.432
CG30151 [DRSC05888], Wolbachia per cell robust z, rep 3: 0.0617
CG30151 [DRSC24759], Wolbachia per cell robust z, rep 3: 0.977

Further records follow.
gene | DRSC id | Wolbachia per cell robust z, rep 1 | Wolbachia per cell robust z, rep 2 | Wolbachia per cell robust z, rep 3 | call
CG16772 | DRSC02516 | -0.19 | -5.4 | -3.53 | inactive
CG16772 | DRSC25947 | 0.661 | -0.306 | 0.375 | inactive
CG7872 | DRSC20062 | 0.00813 | -0.00467 | 0.229 | inactive
CG6321 | DRSC10623 | -0.929 | -0.667 | 1.1 | inactive
MRP | DRSC02942 | -0.262 | 0.541 | -3.22 | inactive
MRP | DRSC40861 | -0.226 | -1.41 | 0.313 | inactive
RpS14b | DRSC18711 | 0.847 | 2.94 | 0.643 | inactive
btd | DRSC18747 | 0.733 | 0.779 | 0.845 | inactive
btd | DRSC29060 | -0.358 | 0.755 | -0.57 | inactive
GstE4 | DRSC06674 | -4.42 | -1.57 | -0.0802 | inactive
GstE4 | DRSC24213 | -0.295 | 0.18 | -0.0308 | inactive
Gpdh3 | DRSC15325 | -3.75 | -5.01 | -1.05 | active
Sbf | DRSC16852 | -0.514 | -3.45 | -0.818 | inactive
Sbf | DRSC27418 | 0.682 | -0.697 | 0.0532 | inactive
CG30487 | DRSC05377 | 0.977 | 0.857 | 2.25 | inactive
ATPsynF + lncRNA:sphinx | DRSC17191 | -0.501 | 1.05 | 0.784 | inactive
mRpL19 | DRSC16367 | 0.23 | 0.29 | 0.569 | inactive
mRpL19 | DRSC21618 | 0.667 | 0.932 | 0.147 | inactive
mRpL19 | DRSC26104 | 0.642 | 0.877 | 2.42 | inactive
